From ChEMBL document CHEMBL3988442, “University of Dundee, Small-Polar-MMV Screening Library” (2021).

Mtb glucose medium: 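Whole-cell growth test on Mycobacterium tuberculosis, read after 3 days in glucose-containing 7H9 medium; the read-out is not stated. Compounds at 50 µM. Direction is inferred from retests: higher values go with more growth inhibition. Of about 69,000 compounds tested this way, about 760 (1.1%) reached 50% or more in at least one test.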
Mtb cholesterol medium: 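Phenotypic screen: M. tuberculosis growth, cholesterol and DPPC medium, 4 days; the read-out is not stated. Tested at 50 µM. Higher reads as more growth inhibition (inferred: compounds with an IC50 in retests scored well above the rest). Of about 69,000 compounds tested this way, about 370 (0.54%) reached 50% or more in at least one test.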

Results are given as percent effect. The controls that fix the scale are not given in the record; negative values are as filed. Many other results are left out here, so strong results are more common than in the screen. Two or more numbers in one place are separate tests of the same structure; such repeats can differ widely.

With COc1cccc(F)c1C(C)NC(=O)NCc1cnc(C)s1 (configuration not stated) the screen gave Mtb glucose medium: -2.569%; Mtb cholesterol medium: -8.189%. With COc1ccc(N2Cc3nc(=O)n(C(C)C)n3C2=O)cc1 the screen gave Mtb glucose medium: -13.18%. Result for Cc1cccc(CN2C[C@@H](CN3CCCN(C)CC3)[C@@H](CO)C2)n1 was Mtb cholesterol medium: -26.94%. O=C(NCCc1cccc(F)c1)C1(n2cnnn2)CCCCC1 gave Mtb glucose medium: 62.84%.

For Cc1ccc(OCCSCCn2nc3ccccn3c2=O)cc1 the result was Mtb cholesterol medium: 70.2%. With Cc1cc(NC(=O)c2ccc(C)c(F)c2)[nH]n1 the screen gave Mtb glucose medium: -8.067%. With OCC(CO)Nc1ccc2c(Cl)ccc(Cl)c2n1 the screen gave Mtb glucose medium: 63.05%. Result for Cc1cc2c(cc1Cl)C=CC1(CCN(CC(=O)NC3CCCC3)CC1)O2 was Mtb glucose medium: 51.26%; Mtb cholesterol medium: 35.37% & 53.95%.

CCc1cc(NC(=O)c2cccc(OCC(F)(F)F)n2)[nH]n1 gave Mtb glucose medium: 50.06%. For CC(=O)N1CCC(Nc2ccc(Br)cc2C#N)C1 (configuration not stated) the result was Mtb glucose medium: 2.55% & 2.654%. For Cc1nc(C(=O)N(C)CC(F)(F)C(F)(F)F)c2ccccn12 the result was Mtb glucose medium: -1.789% & 63.2%. With CCCC(C)N(C)Cc1nnc(-c2ccco2)o1 (configuration not stated) the screen gave Mtb cholesterol medium: 25.75%.

Result for COc1ccc(C2=NOC(CC#N)C2)cc1 (configuration not stated) was Mtb glucose medium: 9.932%. Cc1nc(C)n(CC2CN(c3ncccc3C#N)CCO2)n1 (configuration not stated) gave Mtb glucose medium: 4.21%. c1cncc(NCCNC2CSCCSC2)c1 gave Mtb glucose medium: -12.54%. CC1(C)Cc2c(cnn2-c2ccccc2)C(NC2CCSCC2)C1 (configuration not stated) read Mtb glucose medium: 51.19% & 10.37%.

N#Cc1ccc(NCc2cccc(COC3CCOCC3)c2)nc1 read Mtb glucose medium: 124.4% & 26.47%. With CCOCC(O)CN1CCN(C(=O)Cc2cccc(C)c2)CC1 (configuration not stated) the screen gave Mtb glucose medium: -15.27%. O=C(CCC1CCCO1)NCc1ccnc(-n2cccn2)c1 (configuration not stated) read Mtb glucose medium: -33.54%. Result for COc1ccc2cc(C(=O)NCCc3nc(C)no3)[nH]c2c1 was Mtb glucose medium: -4.268%.

For COCC(=O)NC(C)Cc1cccc(Br)c1 (configuration not stated) the result was Mtb glucose medium: 39.61%. Result for COc1ccccc1OCCn1c(C)c(C)oc1=O was Mtb cholesterol medium: 59.41%.